PubChem BioAssay AID504761, Drosophila RNAi Screening Center | 2011
Aim: 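Insect host genes that dengue virus relies on to spread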 (primary screen). System: D.Mel-2 cells from Drosophila. Reagent: long dsRNA against Drosophila genes. Treatment: infection with dengue virus type 2; dose and infection time not stated. Read-out: 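Per well on two replicate plates, imaging gave the percent of cells positive for viral envelope protein, ranked by infection, and a nuclear count of cells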. Direction: infection score: higher = more virus-infected cells; cell count: higher = more cells in the well. Call rule: 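Low infection ranks in the two replicates (chance level up to 0.065) followed by a retest with a 1.5-fold or larger significant decrease, p below 0.05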. Calls: active = confirmed: knock-down lowers infection; inactive = not picked or not confirmed.
The screen tested about 22,000 reagents; shown is a random part of those with a known target gene and a result. Over the whole deposit, 116 (0.52%) were called active. 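Calls depend on retest data that are not deposited; infection was ranked per plate without normalising between plates; the unit of the infection score is not given.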 The raw values are shown without normalisation. Entries without a mark were called inactive. The numbers tell different reagents against one gene apart. Reagent sequences are not shown. The record does not give: the amount of reagent, the time to read-out.

target gene,dsRNA no.,"infection score, replicate 1","infection score, replicate 2","cell count, replicate 1","cell count, replicate 2"
LamC (Lamin C),1,29.2,13.5,5539,6196
LamC (Lamin C),2,8.7,3.66,5541,6014
CG17169,1,7.29,3.65,4923,5020
CAP,1,7.99,12.7,6281,6125
CAP,2,15.7,8.97,6081,6034
CAP,3,8.81,5.27,6661,6129
CAP,4,21.4,8.58,6150,6069
CG11726,1,3.67,0.39,5644,6175
CheB42c (Chemosensory protein B 42c),1,4.89,0.29,1921,691
CheB42c (Chemosensory protein B 42c),2,11.2,32.6,6803,5797
CG11275,1,8.43,11.3,6846,6467
CkIalpha (Casein kinase Ialpha),1,7.18,22.6,5250,5610
CkIalpha (Casein kinase Ialpha),2,12.7,10.4,3343,5811
CkIalpha (Casein kinase Ialpha),3,3.2,14.1,5404,6116
CkIalpha (Casein kinase Ialpha),4,2.23,8.43,4925,4462

4 successive records already listed, for reference:
target gene,dsRNA no.,"infection score, replicate 1","infection score, replicate 2","cell count, replicate 1","cell count, replicate 2"
CAP,1,7.99,12.7,6281,6125
CAP,2,15.7,8.97,6081,6034
CAP,3,8.81,5.27,6661,6129
CAP,4,21.4,8.58,6150,6069

The results go on.
target gene,dsRNA no.,"infection score, replicate 1","infection score, replicate 2","cell count, replicate 1","cell count, replicate 2"
RabX6,1,3.47,3.46,5557,6123
alpha-Est6 (alpha-Esterase-6),1,7.4,6.5,5476,6400
"E(spl)m6-BFM (Enhancer of split m6, Bearded family member)",1,17.5,3.79,5563,6939
CG9173,1,2.98,7.96,6578,6445
Oseg1 (Outer segment 1),1,4.57,6.46,6977,6765
CG8192,1,15.1,21.4,6390,5990
ckn (caskin),1,2.44,3.05,6446,6431
CG11035,1,4.61,3.98,6418,6437
